One substance from patent US20030099931A1 can be followed below.

The experiment addresses Trinidad donkey (TrD) VEE virus (Venezuelan equine encephalitis virus, Trinidad donkey) (UniProt P05674). Nature of the experiment: cell-based or functional assay.

“irrelevant isotype-matched MAbs (IgG2a-2b)” showed an Endpoint Neutralization Concentration (PRNT), no C' of over 10 µg/mL and an Endpoint Neutralization Concentration (PRNT), with guinea pig complement (C') of over 10 µg/mL.
